Taken from: PubChem BioAssay AID624099 (ICCB-Longwood, 2012)

Screen: 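Human genes that papillomavirus E2 requires to repress the HPV18 LCR promoter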 (primary screen)
Cell system: human C33A cervical carcinoma cells (HPV-negative) stably expressing BPV1 E2 and an HPV18 LCR luciferase reporter
Reagent: siRNA pool against human genes, 40 nM
Time to read-out: 72 h
Detection: 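HPV18 LCR reporter light per well, converted to plate-wise z-scores that exclude control wells, and averaged over triplicate plates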
Reading the numbers: mean z-score and z-score: higher = stronger reporter signal, weaker E2 silencing
Call rule: 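Mean z ≥ 2 together with z ≥ 2 in two or more of the three replicates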
In all, the deposit lists about 21,000 reagents; below is an unselected part. 497 of all reagents (2.4%) were called active. 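Higher z means weaker E2 silencing; only reporter increases were scored, and knock-downs that hurt cell survival may mask genuine repressor factors.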 No sequences are given here.

no.	gene	PubChem SID	mean z-score	z-score, replicate A	z-score, replicate B	z-score, replicate C	activity call
1	KRT10-AS1	SID134319977	0.05	-0.77	0.21	0.7	inactive
2	SGO2	SID134320161	1.07	1.39	0.79	1.05	inactive
3	LOC399986 (retired record)	SID134328402	-0.88	-0.6	-0.91	-1.14	inactive
4	DUS1L	SID134319717	1.6	1.66	1.64	1.52	inactive
5	MTRFR	SID134320833	-0.55	-0.36	-0.7	-0.58	inactive
6	TRIM64FP	SID134328297	-0.15	-0.41	0.1	-0.13	inactive
7	PABPC1	SID134323376	-0.32	-0.26	-0.6	-0.11	inactive
8	H4C14	SID134322873	0.61	0.61	0.63	0.59	inactive
9	LOC389352 (retired record)	SID134327609	0.6	0.55	0.72	0.55	inactive
10	LOC391510 (retired record)	SID134327339	1.51	1.37	1.77	1.4	inactive
11	LOC391088 (retired record)	SID134326965	-0.74	-0.61	-1.13	-0.48	inactive
12	ACSM1	SID134310660	0.45	0.28	0.48	0.6	inactive
13	MMP23B	SID134311387	-1.05	-0.97	-1.04	-1.15	inactive
14	YWHAZ	SID134309850	0.55	0.69	0.64	0.31	inactive
15	USP33	SID134311502	0.03	0.06	0.06	-0.03	inactive
16	ATF3	SID134313522	-0.04	-0.18	-0.11	0.18	inactive
17	CTCFL	SID134310096	0.55	0.45	0.83	0.37	inactive
18	IRGQ	SID134325818	0.11	-0.21	0.23	0.31	inactive
19	TINAG	SID134313142	-0.92	-1.25	-0.93	-0.59	inactive
20	RFX2	SID134315487	0.28	0.16	0.1	0.59	inactive
21	ANGEL1	SID134318228	-0.86	-1.07	-0.54	-0.96	inactive
22	PLD3	SID134314386	-0.26	-0.17	-0.42	-0.18	inactive
23	SRSF10	SID134317164	-0.96	-0.64	-0.9	-1.35	inactive
24	IL11	SID134312862	0.99	1	1.09	0.88	inactive
25	FLJ44385 (retired record)	SID134329634	0.06	0.12	0.04	0.01	inactive
26	ERC1	SID134315319	0.23	0.24	0.11	0.33	inactive
27	ADGRG7	SID134310985	0.46	1	0.17	0.2	inactive
28	LOC389801 (retired record)	SID134328053	-0.17	-0.03	-0.14	-0.34	inactive
29	NMU	SID134323818	0.31	0.18	0.46	0.29	inactive
30	KLK2	SID134311340	0.23	0.16	0.28	0.25	inactive
31	SRRM4	SID134323121	0.46	0.89	0.19	0.3	inactive
32	LOC392531 (retired record)	SID134329200	-0.97	-1.48	-0.6	-0.82	inactive
33	FBXL15	SID134326511	1.03	1.13	0.66	1.3	inactive
34	LOC387784 (retired record)	SID134328263	0.2	0.32	0.23	0.05	inactive
35	CYRIB	SID134321871	1.9	2.14	2.21	1.35	inactive
36	DPYSL2	SID134314251	1.29	1.48	1.14	1.23	inactive
37	SLC19A4P	SID134312371	1.21	1	1.3	1.32	inactive
38	PLP1	SID134319453	-1.67	-1.54	-1.66	-1.8	inactive
39	LOC401623 (retired record)	SID134329190	-0.08	-0.36	0.27	-0.17	inactive
40	OR2B6	SID134329346	-0.59	-0.48	-0.65	-0.64	inactive
41	SLC5A10	SID134312381	0.61	0.72	0.45	0.66	inactive
42	DOCK1	SID134315604	0.75	0.73	0.89	0.62	inactive
43	CNTF	SID134315483	0.4	0.61	0.34	0.24	inactive
44	UCHL1	SID134310386	0.42	0.66	0.48	0.14	inactive
45	VAC14	SID134319757	2.35	2.68	2.02		active
46	VAC14	SID134329736	0.32	0.18	0.26	0.53	inactive
47	TMCC1	SID134325758	0.79	0.83	0.75	0.8	inactive
48	DHX37	SID134322887	-0.99	-1.1	-1.23	-0.65	inactive
49	RAD9B	SID134320179	0.49	0.38	0.6	0.49	inactive
50	HEXIM1	SID134316512	0.07	-0.1	0.04	0.28	inactive
51	CD70	SID134314642	-0.54	-0.5	-0.3	-0.84	inactive
52	ACOT8	SID134314331	1.36	1.53	1.29	1.24	inactive
53	RARA	SID134309888	-0.56	-0.49	-0.63	-0.57	inactive
54	KIRREL2	SID134322753	1.06	0.98	1.08	1.12	inactive
55	SAMD4B	SID134325804	0.66	0.85	0.71	0.43	inactive
56	WNK2	SID56479037	-1.55	-1.82	-1.65	-1.18	inactive
57	SLC2A2	SID134312561	0.95	0.86	0.88	1.11	inactive

Reagents listed above with an active call (1):
gene	PubChem SID	mean z-score	z-score, replicate A	z-score, replicate B	z-score, replicate C	activity call
VAC14	SID134319757	2.35	2.68	2.02		active
